Results of unrelated studies side by side (data: NIAID ChemDB).

Shared fields: cytotoxicity tests; cells: C8166; measure: CC50

Neighbouring rows are from separate reports. CCn is the concentration with n% toxicity to the cells. An empty or dashed field is not shown.

smiles	read by	value
CC(=O)OC[C@H]1O[C@@H](n2cc(C)c(Oc3c(F)c(F)c(F)c(F)c3F)nc2=O)C[C@@H]1N=[N+]=[N-]	-	80 µM
N#Cc1ccc2c(c1)c(/C=N/NC(=O)c1ccccc1)cn2S(=O)(=O)c1cccc([N+](=O)[O-])c1	MTT	21.47 µg/mL
CCC(=O)c1cn(S(=O)(=O)c2cccc([N+](=O)[O-])c2)c2ccccc12	MTT	>200 µg/mL
CN(Cc1nc2ccccc2[nH]1)Cc1ncccc1Br	MTT	>10 µM
CCOc1cc(/C=C2\SC(=O)N(CC(=O)c3ccccc3)C2=O)c(Br)cc1OCc1ccc(C(=O)O)cc1	-	26.36 µg/mL
COc1cc[n+](-c2cccnc2CN(CCCCN)Cc2nc3nccc(N4CCN(C)CC4)c3[nH]2)cc1	MTT	>10 µM
Nc1ccn([C@@H]2CS[C@H](CO)O2)c(=O)n1	MTT	>1000 µM
CCO[C@H]1C[C@H](n2cc(C)c(=O)[nH]c2=O)O[C@@H]1CO	-	>1000 µM
Cc1cccc(OCc2ccccc2)c1	MTT	135 µg/mL
COc1cc([C@H]2c3cc(O)c(OC)cc3C[C@@H](COC(C)=O)[C@@H]2CO)ccc1O	MTT	>200 µg/mL
CO[C@H]1C[C@H](n2cc(C)c(=O)[nH]c2=O)O[C@@H]1COP(=O)(OCC(Cl)Cl)OC[C@H]1O[C@@H](n2cc(C)c(=O)[nH]c2=O)C[C@@H]1OC	-	1000 µM
CCCCCCCCCCCCOP(=O)([O-])OCC[NH2+]C	-	>100 µM
CCC(=O)c1cn(S(=O)(=O)c2ccc(CC)cc2)c2ccc(C#N)cc12	MTT	142.8 µg/mL
COc1cc(CC(CO)C2(Cc3ccc(O)c(OC)c3)CO2)ccc1O	MTT	>200 µg/mL
CN1CCN(c2ccnc3nc(CN(CCCCN)Cc4ncccc4-c4ccccc4)[nH]c23)CC1	MTT	>10 µM
CCC(=O)c1cn(S(=O)(=O)c2ccc(C)cc2)c2ccc(C#N)cc12	MTT	>200 µg/mL
COc1ccc(S(=O)(=O)n2cc(/C(C)=N/NC(=O)c3ccccc3)c3ccc(C)cc32)cc1	MTT	>200 µg/mL
CCO[C@H]1C[C@H](n2cc(C)c(=O)[nH]c2=O)O[C@@H]1COP(=O)(OC[C@H]1O[C@@H](n2cc(C)c(=O)[nH]c2=O)C[C@@H]1OCC)Oc1ccccc1	-	750 µM
Cc1ccc(S(=O)(=O)n2cc(/C=N/NC(=O)c3ccccc3)c3cc([N+](=O)[O-])ccc32)cc1	MTT	73.09 µg/mL
C/C=C(/C)C(=O)O[C@H]1c2cc(OC)c(OC)c(OC)c2-c2c(cc(OC)c(OC)c2OC)C[C@H](C)[C@@]1(O)CC	MTT	>200 µg/mL
O=C(N/N=C/c1cn(S(=O)(=O)c2ccc(Cl)cc2)c2ccccc12)c1ccccc1	MTT	53.15 µg/mL
CCC(=O)c1cn(S(=O)(=O)c2ccc(C)cc2)c2ccccc12	MTT	1.3 µg/mL
O=[N+]([O-])c1ccc(COc2ccccc2)cc1	MTT	109.2 µg/mL
CN1CCN(c2ccnc3nc(CN(CCCCN)Cc4ccco4)[nH]c23)CC1	MTT	>10 µM
Cc1ccc(S(=O)(=O)n2cc(/C=N/NC(=O)c3ccccc3)c3cc(C#N)ccc32)cc1	MTT	124 µg/mL
O=C1c2ccccc2C(=O)c2c(OS(=O)(=O)c3ccccc3)ccc(Cl)c21	MTT	>200 µg/mL
COc1cc([C@H](O)[C@@H](C)Oc2c(O)cc(CC(C)C(C)Cc3cc(O)c(OC)c(OC)c3)cc2OC)ccc1O	MTT	>107 µg/mL
COc1ccc(COc2ccccc2)cc1	MTT	152 µg/mL
CC(=O)Oc1ccc(Cl)c2c1C(=O)c1ccccc1C2=O	MTT	>133 µg/mL
CC(=O)OCC1=C[C@H]2[C@@H]3C(C)(C)[C@]3(OC(C)=O)[C@H](OC(=O)CCCCn3ccc(=O)n(CCCCC(=O)O[C@@H]4[C@@H](C)[C@@]5(O)[C@@H](C=C(COC(C)=O)C[C@]6(O)C(=O)C(C)=C[C@@H]56)[C@@H]5C(C)(C)[C@]45OC(C)=O)c3=O)[C@@H](C)[C@]2(O)[C@@H]2C=C(C)C(=O)[C@@]2(O)C1	MTT	>200 µM
CN1CCN(c2ccnc3nc(CN(CCCCN)Cc4ncccc4Br)[nH]c23)CC1	MTT	>10 µM
CC1=C[C@H]2[C@@]3(O)[C@H](C)[C@@H](OC(=O)/C=C/c4ccc(F)cc4)[C@]4(OC(=O)CCCCCBr)[C@H]([C@@H]3C=C(CO)C[C@]2(O)C1=O)C4(C)C	MTT	48.1 µM
CCC(=O)c1cn(S(=O)(=O)c2ccc(Cl)cc2)c2ccc(C#N)cc12	MTT	>200 µg/mL
CC(=O)O[C@H]1C[C@H](n2cc(C)c(=O)[nH]c2=O)O[C@@H]1CO	-	500 µM
CCCCCCCCCCCCCC(=O)O[C@@H]1[C@@H](C)[C@@]2(O)[C@@H](C=C(COC(C)=O)C[C@]3(O)C(=O)C(C)=C[C@@H]23)[C@@H]2C(C)(C)[C@]12O	MTT	25.26 µM
O=C(O)c1cc2c([nH]c3ccccc32)c(-c2ccc(CO)o2)n1	MTT	28.71 µM
COc1ccc(S(=O)(=O)n2cc(/C=N/NC(=O)c3ccccc3)c3ccc(C)cc32)cc1	MTT	74.86 µg/mL
O=[N+]([O-])c1ccccc1OCc1ccccc1	MTT	117 µg/mL
Cc1cccnc1CN(C)Cc1nc2ccccc2n1C(=O)OC(C)(C)C	MTT	>10 µM
CC(=O)O[C@@]12[C@H](OC(=O)/C=C/c3ccc4c(c3)OCO4)[C@@H](C)[C@@]3(O)[C@@H](C=C(CO)C[C@]4(O)C(=O)C(C)=C[C@@H]34)[C@@H]1C2(C)C	MTT	105 µM
COc1cc([C@@H]2c3cc4c(cc3[C@H](O)[C@H]3COC(=O)[C@H]23)OCO4)cc(OC)c1OC	MTT	0.15 µM
COc1cc(C[C@H]2COC[C@@H]2Cc2ccc(O)c(OC)c2)ccc1O	MTT	>200 µg/mL
C/C(=N\NC(=O)c1ccccc1)c1cn(S(=O)(=O)c2ccccc2)c2ccccc12	MTT	>200 µg/mL
COc1cc(C[C@H]2CO[C@H](c3ccc(O[C@@H]4O[C@H](O)[C@@H](O)[C@H](O)[C@H]4O)c(OC)c3)[C@H]2CO)ccc1O	MTT	>200 µg/mL
CSCO[C@]1(C)COC(C)(CC(=O)OC[C@@H]2C=C[C@H](n3cnc4c(N)ncnc43)O2)C1	-	400 µM
Nc1nc(NC2CC2)c2ncn([C@H]3C=C[C@@H](CO)C3)c2n1	-	>30 µM
Cc1cn([C@H]2C[C@H](N=[N+]=[N-])[C@@H](CO)O2)c(=O)nc1Oc1c(F)c(F)c(F)c(F)c1F	-	400 µM
Cc1ccc(S(=O)(=O)Oc2ccc(Cl)c3c2C(=O)c2ccccc2C3=O)cc1	MTT	>190.6 µg/mL
CC(=O)OC[C@H]1O[C@@H](n2ccc(-n3cncn3)nc2=O)C[C@@H]1OC(C)=O	-	>1000 µM
CCCCC/C(=N\NC(=O)c1ccccc1)c1cn(S(=O)(=O)c2ccccc2)c2ccccc12	MTT	>200 µg/mL
CCCO[C@H]1C[C@H](n2cc(C)c(=O)[nH]c2=O)O[C@@H]1COP(=O)(OC[C@H]1O[C@@H](n2cc(C)c(=O)[nH]c2=O)C[C@@H]1OCCC)Oc1ccccc1	-	500 µM
O=[N+]([O-])c1ccc(COc2ccc([N+](=O)[O-])cc2)cc1	MTT	169 µg/mL
Cc1cn([C@H]2C=C[C@@H](CNC(=O)CC3(C)C[C@@](C)(O)CO3)O2)c(=O)[nH]c1=O	-	>500 µM

The last 7 rows once more:

Cc1cn([C@H]2C[C@H](N=[N+]=[N-])[C@@H](CO)O2)c(=O)nc1Oc1c(F)c(F)c(F)c(F)c1F ; value: 400 µM
Cc1ccc(S(=O)(=O)Oc2ccc(Cl)c3c2C(=O)c2ccccc2C3=O)cc1 ; read by: MTT ; value: >190.6 µg/mL
CC(=O)OC[C@H]1O[C@@H](n2ccc(-n3cncn3)nc2=O)C[C@@H]1OC(C)=O ; value: >1000 µM
CCCCC/C(=N\NC(=O)c1ccccc1)c1cn(S(=O)(=O)c2ccccc2)c2ccccc12 ; read by: MTT ; value: >200 µg/mL
CCCO[C@H]1C[C@H](n2cc(C)c(=O)[nH]c2=O)O[C@@H]1COP(=O)(OC[C@H]1O[C@@H](n2cc(C)c(=O)[nH]c2=O)C[C@@H]1OCCC)Oc1ccccc1 ; value: 500 µM
O=[N+]([O-])c1ccc(COc2ccc([N+](=O)[O-])cc2)cc1 ; read by: MTT ; value: 169 µg/mL
Cc1cn([C@H]2C=C[C@@H](CNC(=O)CC3(C)C[C@@](C)(O)CO3)O2)c(=O)[nH]c1=O ; value: >500 µM